Test results from patent US20230126310A1 (priority 2020, published 2023).

Test system: SARS-CoV-2 (BetaCov/Belgium/GHB-03021/2020)
Test: microbe, parasite or virus in culture
Assay type: cell-based
Settings: Severe acute respiratory syndrome coronavirus 2, 120 h

| SMILES | IC50 [µM] |
| --- | --- |
| O=C(O)Cc1cccc(OCCCN(Cc2cccc(C(F)(F)F)c2Cl)CC(c2ccccc2)c2ccccc2)c1 | 27.7 |
| CC(=O)[C@]1(O)Cc2c(O)c3c(c(O)c2[C@@H](O[C@H]2C[C@H](N)[C@H](O)[C@H](C)O2)C1)C(=O)c1ccccc1C3=O [Idarubicin HCl] | 58.9 |

Counter-ions that a name gives are not always drawn.
